Legend:
[1] = molecular target: Human immunodeficiency virus type 1 reverse transcriptase (Human immunodeficiency virus 1, UniProt Q72547)
CCRF-CEM = test: Inhibitory activity against HIV in CEM-SS cells.

| Structure (SMILES) | IC50 [1] [nM] | EC50 (CCRF-CEM) [nM] |
| --- | --- | --- |
| CCCn1cnc2c(ncn2[C@@H]2O[C@H](COC)[C@@H](OP(C)(=O)O)[C@H]2OC)c1=S | 820 | 140 |
| C=CCn1cnc2c(ncn2[C@@H]2O[C@H](COC)[C@@H](OP(C)(=O)O)[C@H]2OC)c1=O | 50500 | 320 |
| C#CCn1cnc2c(ncn2[C@@H]2O[C@H](COC)[C@@H](OP(C)(=O)O)[C@H]2OC)c1=O | 150 | 260 |
| CCCn1cnc2c(ncn2[C@@H]2O[C@H](COC)[C@@H](OP(C)(=O)O)[C@H]2OC)c1=O | 6700 | 4970 |
| C=CCn1cnc2c(ncn2[C@@H]2O[C@H](COC)[C@@H](OP(C)(O)=S)[C@H]2OC)c1=O (some centres undefined) | 39 | 610 |
| C#CCn1cnc2c(ncn2[C@@H]2O[C@H](COC)[C@@H](OP(C)(=O)O)[C@H]2O)c1=O | 22.3 | 130 |
| C=CCn1cnc2c(ncn2[C@@H]2O[C@H](COC)[C@@H](OP(C)(=O)O)[C@H]2O)c1=O | 9600 | 940 |
